Where no end group is shown, it is not given here.
Test: Circular dichroism, secondary structure estimation (CONTINLL)
Type: physicochemical
Conditions: CD, peptide 0.50 mg/mL, 25 °C

Sequence: LALLVVVKVLKYVV [Na14 peptide]
- Random Coil content (50 mM SDS): 43.9%
- Turn content (50 mM SDS): 15.7%
- Random Coil content (deionized H2O): 56.8%
- Turn content (deionized H2O): 23.7%
- α-Helix content (deionized H2O): 1.7%
- β-Strand content (deionized H2O): 17.8%
